According to paper PMC3315491:
Construct, isoform or probe ends are uncertain for at least one entry. Protein sequences can lack the tags named with them.

Molecular target: T1, EspR (UniProt P9WJB7)
T1 sequence (looked up, limits assumed): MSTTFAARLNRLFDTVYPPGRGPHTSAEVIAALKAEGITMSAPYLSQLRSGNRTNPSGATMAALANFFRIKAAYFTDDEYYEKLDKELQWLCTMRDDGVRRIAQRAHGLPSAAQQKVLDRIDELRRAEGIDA
Assay: DNase I footprinting
Details: 10 µM EspR, regions I and II protected; recombinant protein; label: 6-FAM 5' (forward strand); probe letters rebuilt from the primers and the genome

“GATAACCTGTGAAATCCGTTCGTCGTGTGGACACATCACCGAATCGGTTGGACCCTCATCGGGGGGGTCTTCGTTGACCCCTCACAACGTCAGCACCCAATCCGCTCAGGTTTGCACTTGGTTGTGGACACAACTGTCGCTACCATGATCAGCAAATACATACAGATAACCGTTTGCTCTTGGAGCCCGGTGGAGGTCACATCGATGAGCACGACGTTCGCTGCCCGCCTGAACCGCCTGTTCGACACGGTTTATCCGCCCGGACGCGGGCCACATACCTCCGCGGAGGTGATCGCGGCGCTCAAGGCAGAGGGCATCACGATGTCGGCTCCCTACCTATCACAGCTACGCTCAGGAAACC (double strand) [espR promoter footprint probe]”: binds.
